From patent US20240376185A1, “Tetanus prophylaxis” (SMIVET B V, published 2024) come the findings set out here.

In assay [1] the target is T1, tetanus neurotoxin (TeNT), authentic tetanus holotoxin (Clostridium tetani, UniProt P04958 2-1315). Put plainly: bridging ELISA: coated dog Alb, SDA, biotinylated TeNT, StrepPO.
Assay [2] concerns the target T1, tetanus neurotoxin (TeNT), authentic …. The assay is described as follows: ELISA: directly coated TeNT, goat anti-llama Ig PO. (In general: ELISA stands for enzyme-linked immunosorbent assay.)
Assay [3] shares this target. Put plainly: ELISA: directly coated TeNT, anti-his6 PO.
The target is the same in assay [4]. Put plainly: bridging ELISA: coated dog Alb, SDA, biotinylated TeNT, StrepPO. The source holds these as a separate data set.
Assay [5] shares this target. The assay is described as follows: ELISA: directly coated TeNT, goat anti-llama Ig PO. This is another data set of the same source.
For assay [6] the target is unchanged. The assay is described as follows: GT1b-TeNT inhibition ELISA.
Assay [7] has the same target. Put plainly: bridging ELISA: coated TeNT, SDA, biotinylated TeNT, StrepPO (bivalent binding).
Assay [8] shares this target. The assay is described as follows: ELISA: directly coated TeNT, anti-his6 PO. The source holds these as a separate data set.
For assay [9] the target is unchanged. Put plainly: GT1b-TeNT inhibition ELISA. This is another data set of the same source.
Assay [10] has the same target. The assay is described as follows: bridging ELISA: coated TeNT, SDA, biotinylated TeNT, StrepPO (bivalent binding). The source holds these as a separate data set.
The target is the same in assay [11]. The assay is described as follows: BLI (Octet Red96): biotinylated TeNT on SAX sensor, SDA 100 nM. (In general: BLI is a label-free optical method that tracks binding on a fibre tip over time.)
For assay [12] the target is unchanged. The assay is described as follows: bridging ELISA: coated dog IgG, SDA, biotinylated TeNT, StrepPO.
For assay [13] the target is unchanged. The assay is described as above. The source holds these as a separate data set.

B1: SVT06-GS3-SVT16-L123Q-GS2-SVA12M2-H6 (bispecific antibody)
chain: QVQLQESGGGSVQAGGSLRLSCTASELSYDDYTIAWFRRAAGEGRVEDGEGVASITKSYDRAYDNKINYGHSVKGRFTISRDNAKNTVYLQMTDLLPSDTAVYYCALDITPPGGVGASLTEGFLFDYWGQGTQVTVSSGGGGSGGGGSGGGGSQVQLQESGGGSVQAGDSLRLSCAASGRTISNYAMGWFRQAPGKQREFVAAISRSDNTYYTDSVKGRFTISRDNAKNTLYLQMNSLKPEETAVYYCAADPNLMYESKWKYRALEAWGQGTQVTVSSGGGGSGGGSEVQLVESGGGLVQAGGSLRLSCAASGRTFSYYPMAWFRQAPGQEREFVAAIIGADTTYYADSLKGRFTISRDNAKNMVYLQMNSLKPEDTAVYYCAARNTYWSDVYYREGQYTNWGQGTQVTVSSHHHHHH
For the molecule B1, the maximal absorbance value in assay [1] stood at 1.55 A450; in assay [2], 1.41 A450; in assay [3], 1.72 A450; in assay [7], 1.62 A450. Also, the “Effective SDA Concentration at A450 0.3” value came out at 1.5 ng/mL in [4] and 5.4 ng/mL in assay [10]. In addition, the “Effective SDA Concentration at A450 0.15” value in assay [5] worked out at 1.1 ng/mL; in assay [8], 3.8 ng/mL. The “Effective SDA Concentration at A450 0.56” value in assay [6] stood at 49 ng/mL. Further, the “minimal absorbance value (GT1b-TeNT inhibition)” value in assay [9] worked out at 0.13 A450.

B2: SVT16-L123Q-GS2-SVG13M4-H6 (bispecific antibody)
chain: QVQLQESGGGSVQAGDSLRLSCAASGRTISNYAMGWFRQAPGKQREFVAAISRSDNTYYTDSVKGRFTISRDNAKNTLYLQMNSLKPEETAVYYCAADPNLMYESKWKYRALEAWGQGTQVTVSSGGGGSGGGSEVQLVESGGGLVQPGGSLRLSCEASGFTFDDYGMSWVRQAPGKGLEWVSSLTPNGGSTYYADSVKGRFTISRDNAKNTLYLQMNSLKPEDTALYYCAKNSYYGAMDYWGQGTQVTVSSHHHHHH
As to B2, the maximal absorbance value in assay [2] stood at 1.22 A450; in assay [3], 1.45 A450; in [7], 1.12 A450; in assay [13], 1.5 A450. Besides, the “1st test Signal (nm)” value in assay [11] was determined as 0.18 nm. Moreover, the figures for the “Effective SDA Concentration at A450 0.15” value in assay [5] and in assay [8] were 3 ng/mL and 8 ng/mL, respectively. Further, the “Effective SDA Concentration at A450 0.56” value in assay [6] was found to be 73 ng/mL. The results for the “Effective SDA Concentration at A450 0.3” value in assay [12] and in [10] were 2.6 ng/mL and 13 ng/mL, respectively. Also, the “minimal absorbance value (GT1b-TeNT inhibition)” value in [9] was determined as 0.13 A450.

B3: SVT06-SVT16-L123Q-GS2-SVG13M4-H6 (bispecific antibody)
chain: QVQLQESGGGSVQAGGSLRLSCTASELSYDDYTIAWFRRAAGEGRVEDGEGVASITKSYDRAYDNKINYGHSVKGRFTISRDNAKNTVYLQMTDLLPSDTAVYYCALDITPPGGVGASLTEGFLFDYWGQGTQVTVSSQVQLQESGGGSVQAGDSLRLSCAASGRTISNYAMGWFRQAPGKQREFVAAISRSDNTYYTDSVKGRFTISRDNAKNTLYLQMNSLKPEETAVYYCAADPNLMYESKWKYRALEAWGQGTQVTVSSGGGGSGGGSEVQLVESGGGLVQPGGSLRLSCEASGFTFDDYGMSWVRQAPGKGLEWVSSLTPNGGSTYYADSVKGRFTISRDNAKNTLYLQMNSLKPEDTALYYCAKNSYYGAMDYWGQGTQVTVSSHHHHHH
notes: also called pRL501
For the molecule B3, the maximal absorbance value in assay [2] turned out to be 1.37 A450; in assay [3], 1.62 A450; in [7], 1.73 A450; in [13], 1.69 A450. The “Effective SDA Concentration at A450 0.15” value in [5] stood at 4 ng/mL; in assay [8], 11 ng/mL. In [6], the “Effective SDA Concentration at A450 0.56” value stood at 35 ng/mL. For the same molecule, the “Effective SDA Concentration at A450 0.3” value turned out to be 1.2 ng/mL in assay [12] and 5.3 ng/mL in assay [10]. The “minimal absorbance value (GT1b-TeNT inhibition)” value in assay [9] is 0.13 A450.
